Pooled drug test results. Numbers come from NIAID ChemDB, via PubChem.

All rows: whole-cell or culture tests; organism: Mycobacterium tuberculosis

Blank or dashed fields: not listed here. Neighbouring rows are from separate reports. Inhibition is in % at the dose shown (toxicity tests: loss of growth or viability). MIC50, MIC90 and the like: level of inhibition, or share of isolates inhibited. MIC bound comes from a single tested concentration. ECn: concentration that inhibits the pathogen or its effect by n%.

SMILES,tested at,method,endpoint,strain or isolate,conditions,result
O=c1oc2ccc(Br)cc2c(=S)n1-c1ccc(Cl)c(Cl)c1,,,MIC,My 331/88,14 d,1 µM
CO/N=C1\C[C@@H](C)O[C@@H](O[C@@H]2[C@@H](C)[C@H](O[C@H]3CC(C)N(CCC(C)C)C[C@H](C)O3)[C@@H](C)C(=O)O[C@H]([C@@H](C)CO[C@@H]3O[C@H](C)[C@@H](O)[C@@H](OC)[C@H]3OC)[C@H](C)[C@@H](OC(=O)CC(C)C)[C@@H](C)C(=O)[C@@](C)(OC(=O)N3CCO[C@@H](C)C3)C[C@@H]2C)[C@@H]1O,,resazurin,MIC,H37Rv,,0.863 µM
O=C(c1cc(OCCN2CCN(c3ccccc3)CC2)nc2ccccc12)N1CCN(c2ccccc2)CC1,,resazurin,MIC bound,H37Rv,,>6.25 µg/mL
Cc1[nH]n(-c2ccc([N+](=O)[O-])cc2)c(=O)c1N=Nc1ccc(-c2n[nH]c(=S)n2C)cc1,,,EC50,H37Rv,,>6.25 µg/mL
CC(=O)CC1CCC(=O)CCC(=O)OC(CC(C)=O)CCC(=O)CCC(=O)O1,,BACTEC,MIC bound,H37Rv,,>12.5 µg/mL
O=C1c2cc(F)ccc2-n2c1nc1ncccc1c2=O,,,MIC,H37Rv,,0.25 µg/mL
COC(=O)C1C(c2cc3cc(OC)ccc3nc2Cl)C2=C(CCCC2=O)N(c2cccnc2)C1N,6.25 µg/mL,,inhibition,H37Rv,,25%
Cc1ccc2oc(=S)n(-c3ccc(Cl)c(Cl)c3)c(=S)c2c1,,,MIC,My 331/88,21 d,0.5 µM
CC(C)=CCC/C(C)=C/CNC(=O)CNC(=O)C12CC3CC(C1)CC(C(=O)NCC(=O)NC/C=C(\C)CCC=C(C)C)(C3)C2,,BACTEC,MIC,H37Rv,,>50 µM
CCOC(=O)/C(N=Nc1ccc(C(=O)N/N=C/c2ccc([N+](=O)[O-])o2)cc1)=C(\C)O,,,MIC,H37Rv,,<12.5 µg/mL
COc1cc2c(c3c1c(=O)c1cccc(F)c1n3C)C=CC(C)(C)O2,,BACTEC,MIC bound,H37Rv,,>12.5 µg/mL
CC(C)=CC1C[C@](C)(O)C2C3CCC4C(CC=C5C(C)(C)[C@@H](O[C@@H]6OC[C@@H](O)[C@H](OC7O[C@H](CO)[C@@H](O)[C@H](O)[C@H]7OC(=O)/C=C/c7ccc(O)cc7)[C@H]6O[C@@H]6O[C@@H](CO)[C@H](O)[C@H]6O)CC[C@@]54C)C34CC2(OO4)O1,,,MIC,,,50 µg/mL
O=C(NN1C(=O)CSC1c1ccc(F)cc1F)c1ncc2cc(C(F)(F)F)ccc2n1,,visual reading,MIC,H37Rv,,1.95 µM
O=C1C=C(Nc2ccc(S(=O)(=O)c3ccc(NC4=CC(=O)C(=O)c5ccccc54)cc3)cc2)c2ccccc2C1=O,,resazurin,MIC bound,H37Rv,,>6.25 µg/mL
COc1ccc2nc(Cl)c(C3C4=C(CCCC4=O)N(c4cccnc4)C(N)C3C#N)cc2c1,6.25 µg/mL,,inhibition,H37Rv,,65%
Clc1ccc(C2=NNc3c4ccccc4c4c5cc(Cl)ccc5nc-4n3C2)cc1,,broth dilution / resazurin,MIC,H37Rv,,6.25 µg/mL
Cn1c(-c2ccccc2)c2c(c1-c1ccccc1)C(=O)c1c(c(-c3ccccc3)n(C)c1-c1ccccc1)C2=O,6.25 µg/mL,resazurin,inhibition,H37Rv,,22%
O=C1c2cc(F)ccc2-n2c1nc1cnccc1c2=O,,,MIC,H37Rv,,0.13 µg/mL
NNC(=O)c1cn(C2CC2)c2cc(N3CCNCC3)c(F)cc2c1=O,,,MIC50,ATCC35801,,36.4 µg/mL
CC(C)=CCC/C(C)=C/CNC(=O)CNC(=O)CC12OC3(CC(=O)NCC(=O)NC/C=C(\C)CCC=C(C)C)C4C5CC(C6C5C3C61)C42,,BACTEC,MIC,H37Rv,,>50 µM
O=C1c2ccccc2-n2c1nc1ccc(Br)cc1c2=O,,,MIC,H37Rv,,0.13 µg/mL
COc1ccc2oc(=O)n(-c3cccc(F)c3)c(=S)c2c1,,,MIC,My 331/88,14 d,16 µM
O=Cc1ccc2c(c1)C(=O)c1nc3ccncc3c(=O)n1-2,,,MIC,H37Rv,,0.5 µg/mL
CO[C@H]1/C=C/O[C@@]2(C)Oc3c(C)c(O)c4c(O)c(c(C=Nc5ccncc5)c(O)c4c3C2=O)NC(=O)/C(C)=C\C=C\[C@H](C)[C@H](O)[C@@H](C)[C@@H](O)[C@@H](C)[C@H](OC(C)=O)[C@@H]1C,,,MIC,H37Rv,,2 µg/mL
CC1COc2c(N3CCN(C)CC3)c(F)cc3c(=O)c(C(=O)O)cn1c23,,,MIC,Y777 (streptomycin isoniazid rifampicin-resistant),,8 µg/mL
CC1=NN(C(=O)c2ccccn2)C(=O)C1N=Nc1ccc(S(=O)(=O)Nc2ncccn2)cc1,12.8 µg/mL,BACTEC,inhibition,H37Rv,,-8%
Cc1ccc(C)c(C2SCC(=O)N2NC(=O)c2ncc3cc(C(F)(F)F)ccc3n2)c1,,visual reading,MIC,H37Rv,,1.27 µM
N#CC1C(c2cc3cc(Cl)ccc3nc2Cl)C2=C(CCCC2=O)N(c2cccnc2)C1N,6.25 µg/mL,,inhibition,H37Rv,,14%
COc1ccc2[nH]c3c(c2c1)c1ccccc1c1nnc(C(C)(C)C)n13,,broth dilution / resazurin,MIC,H37Rv,,6.25 µg/mL
COc1ccc(C2SCC(=O)N2NC(=O)c2ncc3cc(C(F)(F)F)ccc3n2)c(OC)c1,,visual reading,MIC,H37Rv,,2.38 µM
Cc1[nH]n(-c2ccccc2)c(=O)c1N=Nc1ccc(-c2n[nH]c(=S)n2C)cc1,,,MIC,H37Rv,,>6.25 µg/mL
CCOC(=O)c1cc([N+](=O)[O-])c[nH]1,,BACTEC,MIC bound,H37Rv,,>6.25 µg/mL
Cc1ccc2[nH]c3nc(-n4nc(-c5ccccc5)c5ccccc5c4=O)c4ccccc4c3c2c1,,broth dilution / resazurin,MIC,H37Rv,,6.25 µg/mL
CO[C@H]1/C=C/O[C@@]2(C)Oc3c(C)c(O)c4c(O)c(c(/C=N/n5cnnc5)c(O)c4c3C2=O)NC(=O)/C(C)=C\C=C\[C@H](C)[C@H](O)[C@@H](C)[C@@H](O)[C@@H](C)[C@H](OC(C)=O)[C@@H]1C,,,MIC,H37Rv,,>5 µg/mL
O=c1oc2ccc(Br)cc2c(=S)n1-c1ccc(C(F)(F)F)cc1,,,MIC,My 331/88,14 d,2 µM
CC(C)(C)c1nnc2c3ccccc3c3c4cc(Cl)ccc4[nH]c3n12,,broth dilution / resazurin,MIC,H37Rv,,1.6 µg/mL
O=c1c2ccccc2c(=O)c2c1cc(Cl)c1[nH]c3c([nH]c12)c(Cl)cc1c(=O)c2ccccc2c(=O)c13,12.5 µg/mL,BACTEC,inhibition,H37Rv,,-5%
Cc1ccc2oc(=S)n(-c3ccc(Br)cc3)c(=S)c2c1,,,MIC,My 331/88,14 d,0.5 µM
COC1=CC(=N/Br)/C=CC/1=N\Br,12.5 µg/mL,BACTEC,inhibition,H37Rv,,3%
CC(=O)Oc1c(C)c2c(O)c3c1C1=C(OCOC1=C(C)C3=O)/C(C)=C/[C@@](C)(O)[C@H](O)[C@@H](C)[C@@H](O)[C@H](C(=O)O)[C@H](O)[C@H](C)C(O)[C@H](C)/C=C\C=C(/C)C(=O)N2,,,MIC,H37Rv,,0.1 µg/mL
Cc1ccc(S(=O)(=O)N/N=C(\CC(=O)c2c(C)n([O-])c3ccccc3[n+]2=O)C(=O)Nc2ccc(C)c(C)c2)cc1,,BACTEC,MIC,H37Rv,,≥12.5 µg/mL
COc1ccc(-n2[nH]c(C)c(N=Nc3ccc(-c4n[nH]c(=S)n4C)cc3)c2=O)cc1,6.25 µg/mL,,inhibition,H37Rv,,1%
CC[C@H](/C=C/C(C)[C@H]1CC[C@@]2(C)C3CCC4=CC(=O)CC[C@]4(C)C3CC[C@]12C)C(C)C,,,MIC,,,<2 µg/mL
O=C1c2cc(I)ccc2-n2c1nc1c(Br)cc(Br)c(F)c1c2=O,,,MIC,H37Rv,,0.06 µg/mL
Nc1ccccc1C1SCC(=O)N1NC(=O)c1ncc2cc(C(F)(F)F)ccc2n1,,visual reading,MIC,H37Rv,,2.17 µM
COc1ccc(Cc2cc(N=NC(N)=O)c(OC)cc2O)cc1,,BACTEC,MIC bound,H37Rv,,>12.5 µg/mL
Clc1ccc(CSc2ncnc3c2cnn3Cc2cccnc2)cc1,,,MIC,H37Rv,,1 µg/mL
CCCCCCCCc1ccc2c(c1)C(=O)c1nc3ccncc3c(=O)n1-2,,,MIC,TN772RFLF:AB (MDR),,≤0.015 µg/mL
CCN(CC)CCNc1ccc(CO)c(Cl)c1,12.5 µg/mL,BACTEC,inhibition,H37Rv,,-4%
CO/N=C1\C[C@@H](C)O[C@@H](O[C@@H]2[C@@H](C)[C@H](O[C@H]3C[C@@H](C)N(C)C[C@H](C)O3)[C@@H](C)C(=O)O[C@H]([C@@H](C)CO[C@@H]3O[C@H](C)[C@@H](O)[C@@H](OC)[C@H]3OC)[C@H](C)[C@@H](OC(=O)CC(C)C)[C@@H](C)C(=O)[C@@](C)(OC(=O)N3C[C@H](C)O[C@@H](C)C3)C[C@@H]2C)[C@@H]1O,,resazurin,MIC,H37Rv,,0.886 µM
CO[C@H]1/C=C/O[C@@]2(C)Oc3c(C)c(O)c4c(O)c(c(/C=N/NC(N)=O)c(O)c4c3C2=O)NC(=O)/C(C)=C\C=C\[C@H](C)[C@H](O)[C@@H](C)[C@@H](O)[C@@H](C)[C@H](OC(C)=O)[C@@H]1C,,,MIC,H37Rv,,5 µg/mL
CC(C)=CCC/C(C)=C/CNCCNCCC12OC3(CCNCCNC/C=C(\C)CCC=C(C)C)C4C5CC(C6C5C3C61)C42,,BACTEC,MIC,H37Rv,,1 µM
COC(=O)C1C(c2cc3ccccc3nc2Cl)C2=C(CCCC2=O)N(c2cccnc2)C1N,,,MIC,H37Rv,,100 µg/mL
Cc1ccc(C2=NNc3c4ccccc4c4c5cc(C)ccc5nc-4n3C2)cc1,,broth dilution / resazurin,MIC,H37Rv,,12.5 µg/mL
Oc1cccc2c1[C@H](O)[C@H]1O[C@H]1C21Oc2cccc3cccc(c23)O1,,,MIC,,,50 µg/mL
Cn1c(=O)c2nc(-c3ccccc3)nnc2n(CCO)c1=O,,BACTEC,MIC bound,H37Rv,,>12.5 µg/mL
Nc1ccc(C2SCC(=O)N2NC(=O)c2ncc3cc(C(F)(F)F)ccc3n2)c(N)c1,,visual reading,MIC,H37Rv,,1.6 µM
C/C(=N/NC(=S)N1CCC(C)CC1)c1nccnc1C,,BACTEC,MIC,H37Rv,,1.6 µg/mL
CO/N=C1\C[C@@H](C)O[C@@H](O[C@@H]2[C@@H](C)[C@H](O[C@H]3C[C@@H](C)N(C)C[C@H](C)O3)[C@@H](C)C(=O)O[C@H]([C@@H](C)CO[C@@H]3O[C@H](C)[C@@H](O)[C@@H](OC)[C@H]3OC)[C@H](C)[C@@H](OC(=O)CC(C)C)[C@@H](C)C(=O)[C@@](C)(OC(=O)N3C[C@@H](C)O[C@@H](C)C3)C[C@@H]2C)[C@@H]1O,,resazurin,MIC,H37Rv,,0.533 µM
O=[N+]([O-])c1cn2c(n1)OC[C@@H](OCc1ccc(OC(F)(F)F)cc1)C2,,,MIC,Drug-susceptible,,0.06 µg/mL
O/N=C/c1cnccn1,12.5 µg/mL,BACTEC,inhibition,H37Rv,,0%
COc1ccc2[nH]c3nc(-n4[nH]c(=O)c5ccccc5c4=O)c4ccccc4c3c2c1,,broth dilution / resazurin,MIC,H37Rv,,3.125 µg/mL
Cc1ccc(S(=O)(=O)N/N=c2\c(C)c(C3=NS(=O)(=O)c4cc(S(N)(=O)=O)c(Cl)cc4N3)oc3c(Cl)cc(Cl)cc23)cc1,6.25 µg/mL,resazurin,inhibition,H37Rv,,2%
O=C(NN1C(=O)CSC1c1ccc(Cl)cc1Cl)c1ncc2cc(C(F)(F)F)ccc2n1,,visual reading,MIC,H37Rv,,2.58 µM
CN(CCO)CNC(=O)C1=C(O)C2(O)C(=O)C3=C(O)c4c(O)cccc4C(C)(O)C3CC2C(N(C)C)C1=O,,BACTEC,MIC bound,H37Rv,,>12.5 µg/mL
O=c1oc2ccc(F)cc2c(=S)n1-c1ccc(C(F)(F)F)cc1,,,MIC,My 331/88,21 d,4 µM
CN1c2ccccc2N=Cc2c1oc1ccc3ccccc3c1c2=O,,BACTEC,MIC bound,H37Rv,,>12.5 µg/mL
C=CC(C)(C)c1c2c(c(O)c3ccc(=O)oc13)C(=O)CC(C)(C)O2,,,MIC,,,100 µg/mL
Cc1cc(/C=N/N2CCN(/N=C/c3cc(C)n(-c4ccccc4)c3C)CC2)c(C)n1-c1ccccc1,,resazurin,MIC bound,H37Rv,,>6.25 µg/mL
CO[C@H]1/C=C/O[C@@]2(C)Oc3c(C)c(O)c4c(O)c(c(C=O)c(O)c4c3C2=O)NC(=O)/C(C)=C\C=C\[C@H](C)[C@H](O)[C@@H](C)[C@@H](O)[C@@H](C)[C@H](OC(C)=O)[C@@H]1C,,,MIC,H37Rv,,0.1 µg/mL